These results are taken from PMC8125995, “In Vitro Antiplasmodial and Cytotoxic Activities of Compounds from the Roots of Eriosema montanum Baker f. (Fabaceae)” (Molecules, 2021).

This data set deals with 3D7 strain of Plasmodium falciparum. Description: In vitro antiplasmodial activity (SYBR Green, 48 h). It counts as cell-based. Particulars: SI = CC50 (THP-1) / IC50 (P. falciparum 3D7). The method, then: Continuous in vitro cultures of asexual erythrocyte stages of P. falciparum, chloroquine-sensitive 3D7 strain was maintained according to the procedure of Trager and Jensen. Strains were obtained from ATCC, Bei Resources. The host cells were human red blood cells (A+). […] Compound stock solutions were prepared in DMSO at 10 mg/mL (for an extract) and 1 mg/mL (for an isolated compound). Then, the solution is directly diluted in the medium; each test sample was applied in a series of eight 2-fold dilutions in a 96-well plate, starting with 100 µg/mL and 10 µg/mL for the crude extract and purified compounds, respectively, and tested in triplicate. The effect of compounds on the parasite growth was estimated, after 48 h incubation, by using the SYBR Green, a DNA intercalating compound. Artemisinin (Sigma-Aldrich, Machelen, Belgium), at an initial concentration of 100 ng/mL, was used as positive control in all experiments. The half-maximal inhibitory concentration (IC50) values were calculated from graphs.
`COc1cc(OC2OC(CO)C(O)C(O)C2O)cc2occ(-c3ccc(O)cc3)c(=O)c12` (centres unmarked) [Compound 2, 7-O-glucopyranosyl-isoprunetin] came in with an SI of 2846.9. For `COc1cc(O)cc2occ(-c3ccc(O)cc3)c(=O)c12` [Compound 5, isoprunetin] the value was 5264.3; for `O=c1c(-c2ccc(O)c(O)c2)coc2cc(O)cc(O)c12` [Compound 6, Isoluteolin], 2005.8. For `O=c1c(-c2ccc(O)cc2)coc2cc(O[C@@H]3O[C@H](CO)[C@@H](O)[C@H](O)[C@H]3O)cc(O)c12` [Compound 3, genistin] the value was 24.9; for `O=C(O)C[C@](O)(Cc1ccc(O)cc1)C(=O)O` [Compound 1, eucomic acid], 6577.
